Replication capacity of HIV-1 mutants, Nef

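Random point mutant libraries of HIV-1 NL4-3, one for each of seven fragments, were passaged in CEM T lymphocytes. The RC index is the frequency of a change after passage round 2 divided by its frequency in the plasmid library.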

Protein: Nef of HIV-1 NL4-3, numbered from its first residue.
From base 9076 on, changes also alter the 3' U3.
Effects on overlapping genes or RNA elements are not listed.

Values are the RC index; higher means better tolerated. The authors read about 0.1 or less as lethal, 0.1-0.2 as attenuated and 0.2 or more as tolerated.
A change reads original residue, position, new residue.
Input reads are the counts in the plasmid library.
Since each clone held several changes (about five per kb), neutral changes can read low.
Nucleotide positions follow pNL4-3.
An index over 1, which the authors read as above wild type, was rare (1.9% of all changes in the genome).

D86Y (base G9042T, input reads 201) read 0.297.
N205K (base C9401A, input reads 106) read 0.828.
G99W (base G9081T, input reads 104) read 0.425.
R106S (base A9104T, input reads 347) read 0.770.
L87P (base T9046C, input reads 321) read 0.353.
K4T (base A8797C, input reads 117) read 1.24.
A53S (base G8943T, input reads 91) read 0.806.
A23D (base C8854A, input reads 97) read 0.0968.
R105S (base A9101T, input reads 189) read 0.702.
W5L (base G8800T, input reads 401) read 0.207.
M173T (base T9304C, input reads 285) read 0.585.
A49P (base G8931C, input reads 76) read 0.446.
P72H (base C9001A, input reads 282) read 0.745.
L198M (base C9378A, input reads 159) read 0.818.
M20T (base T8845C, input reads 193) read 0.122.
V85A (base T9040C, input reads 280) read 0.790.
L76V (base T9012G, input reads 84) read 0.722.
F139C (base T9202G, input reads 57) read 0.617.
P75H (base C9010A, input reads 197) read 0.372.
Y120N (base T9144A, input reads 163) read 0.743.
D86N (base G9042A, input reads 222) read 1.33.
A83G (base C9034G, input reads 76) read 0.557.
W124R (base T9156C, input reads 264) read 0.437.
S103F (base C9094T, input reads 159) read 0.955.
K82N (base G9032C, input reads 44) read 0.577.
A54S (base G8946T, input reads 64) read 0.551.
D174N (base G9306A, input reads 207) read 0.705.
P78Q (base C9019A, input reads 135) read 1.84.
T117R (base C9136G, input reads 171) read 0.585.
V16L (base G8832C, input reads 53) read 0.
T128R (base C9169G, input reads 170) read 0.373.
S45R (base A8919C, input reads 49) read 0.489.
R77S (base A9017T, input reads 224) read 0.737.
E98D (base A9080T, input reads 341) read 0.519.
D175E (base C9311G, input reads 110) read 0.972.
N205D (base A9399G, input reads 302) read 0.844.
V153L (base G9243C, input reads 151) read 0.578.
L164M (base T9276A, input reads 574) read 0.767.
L112R (base T9121G, input reads 105) read 1.96.
A190S (base G9354T, input reads 191) read 0.628.

5 of these entries, quoted again:

{"mutation": "R106S", "base": "A9104T", "input reads": "347", "replication capacity index": 0.770}
{"mutation": "N205K", "base": "C9401A", "input reads": "106", "replication capacity index": 0.828}
{"mutation": "V153L", "base": "G9243C", "input reads": "151", "replication capacity index": 0.578}
{"mutation": "S45R", "base": "A8919C", "input reads": "49", "replication capacity index": 0.489}
{"mutation": "M20T", "base": "T8845C", "input reads": "193", "replication capacity index": 0.122}

Values reported by Al-Mawsawi et al. 2014 (doi:10.1186/s12977-014-0124-6).